Patent US20110014209

Molecular target: T1, CD81 MBP-LEL containing the F186S mutation, human, P60033 113-201
T1 sequence: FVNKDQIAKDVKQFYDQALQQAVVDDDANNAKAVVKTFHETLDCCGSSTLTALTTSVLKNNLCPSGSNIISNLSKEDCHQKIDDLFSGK
Test: MBP-LEL ELISA, H53 detection

Substance: E2Δ1-his mature protein
- result: no binding
